Results published in US20220356230A1 (published 2022).

Assays:
[1] = molecular target: T1, SARS-CoV-2 RBD-hFc (receptor binding domain of the SARS-CoV-2 Spike protein, amino acids Arg319-Phe5 (SARS-CoV-2)); experiment: blocking ELISA, RBD-hFc to hACE2-His, run 2
[2] = molecular target: T1, SARS-CoV-2 RBD-hFc (receptor binding …); experiment: blocking ELISA, RBD-hFc to hACE2-His, run 3

B1: mAb10966 (antibody, V domains shown)
VH: EVQLVESGGGLVQPGGSLRLSCAASGLTVSSNYMSWVRQAPGKGLEWVSVIYSGGSTFYADSVKGRFTISRDNSKNTLYLQMNSLRPEDTAVYYCAREGRIAATGYGMDVWGQGTTVTVSS
VL: DIQMTQSPSSLSASVGDRVTITCQASQDISNYLNWYQQKPGKAPKLLIYDASNLGTGVPSRFSGSRSGTDFTFTISSLQPEDIATYYCHQYDNLPQTFGPGTKVDIKR
Work on B1 yielded an IC50 [1] of 0.16 nM.

B2: mAb10998 (antibody, V domains shown)
VH: EVQLVESGGGLVHPGGSLRLSCAASGLTVSSNYMSWVRQAPGKGLEWVSVIYSGGSTYYADSVKGRFTISRHNSKNTLFLQMNSLRAEDTAVYYCARDRPITGTTLDVWGQGTTVTVSS
VL: DIQMTQSPSSLFASVGDRVTITCRASQSISSYLNWYQQKPGKAPKLLIYAASSLQSGVPSRFSGSGSGTDFTLTISSLQPEDFAFYYCQQTYSTPPITFGQGTRLEIKR
For B2, the IC50 [2] was 4.3 nM.

B3: mAb11006 (antibody, V domains shown)
VH: EVQLVESGGGLVQPGGSLRLSCAASGFIVSRNYMSWVRQAPGKGLEWVSVIYSGGSTFYADSVKGRFTISRHNSKNTLYLQMNSLKAEDTAVYYCARELRGYFDYWGQGTLVTVSS
VL: DIQLTQSPSFLSASVGDRVTITCWASQGISSYLAWYQQKPGKAPKLLIYAASTLQSGVPSRFSGSGSGTEFTLTISSLQPEDFATYYCQLLNSYPYTFGQGTKLEIKR
Binder B3 has an IC50 [2] of 0.22 nM.
